Key:
Plasmodium falciparum [1] = experiment: NOVARTIS: Inhibition of Plasmodium falciparum 3D7 (drug-susceptible) proliferation in erythrocyte-based infection assay; format: functional, organism-based
Plasmodium falciparum [2] = experiment: NOVARTIS: Inhibition of Plasmodium falciparum W2 (drug-resistant) proliferation in erythrocyte-based infection assay; format: functional, organism-based

SMILES	EC50 (Plasmodium falciparum [1]) [nM]	EC50 (Plasmodium falciparum [2]) [nM]
CN(C)[P+](C)(N(C)C)N(C)C	442	382
CCCN(CCC)[P+](C)(N(CCC)CCC)N(CCC)CCC	895	580
CCCN(CCC)[P+](CC)(N(CCC)CCC)N(CCC)CCC	207	273
